Measured values from several laboratories, pooled; numbers as filed in NIAID ChemDB.

All rows: host cell toxicity; cells: L929; read-out: CC50

CCn is the concentration with n% toxicity to the cells.

{"smiles": "N#Cc1c(SCCCBr)nsc1-c1ccccc1", "value": "25 µg/mL"}
{"smiles": "CN(C)c1cc(=O)n(CCOCP(=O)(O)O)c(N)n1", "value": "<10 µM"}
{"smiles": "O=C(CC1NCCC[C@@H]1O)Cn1cnc2c(c1=O)CCCC2", "read by": "MTT", "value": "73.8 µg/mL"}
{"smiles": "CN(C)c1cc(OCCOCP(=O)(O)O)nc(N)n1", "value": "<10 µM"}
{"smiles": "O=[N+]([O-])c1c(Cl)ncnc1N1CC[N+]2(CC1)CC[N+]1(CCN(c3ncnc(Cl)c3[N+](=O)[O-])CC1)CC2", "value": "67.2 µg/mL"}
{"smiles": "CSc1nsc(-c2ccccc2)c1C#N", "value": "20 µg/mL"}
{"smiles": "Nc1nc(OCCOCP(=O)(O)O)cc(=O)n1CCOCP(=O)(O)O", "value": "<10 µM"}
{"smiles": "O=C(CC1NCCC[C@@H]1O)Cn1cnc(-c2ccccc2)cc1=O", "read by": "MTT", "value": "29.4 µg/mL"}
{"smiles": "COC(=O)c1c(SC)nsc1-c1ccccc1", "value": "100 µg/mL"}
{"smiles": "O=c1[nH]cnc(N2CC[N+]3(CC2)CC[N+]2(CCN(c4nc[nH]c(=O)c4[N+](=O)[O-])CC2)CC3)c1[N+](=O)[O-]", "value": "132.1 µg/mL"}
{"smiles": "Cc1cc(=O)n(CCOCP(=O)(O)O)c(N)n1", "value": "<10 µM"}
{"smiles": "Nc1[nH]n2c(=O)cc(CN3CC[N+]4(CC3)CC[N+]3(CCN(Cc5cc(=O)n6[nH]c(N)c([N+](=O)[O-])c6n5)CC3)CC4)nc2c1[N+](=O)[O-]", "value": ">70.3 µg/mL"}
{"smiles": "CC1=C(CC/C(C)=C/CC[C@@]2(C)CC[C@@H]([C@@H](C)C(=O)O)OO2)C(C)(C)CCC1", "value": "<0.392 µM"}
{"smiles": "Cc1nc(Cl)c([N+](=O)[O-])c(N2CC[N+](C)(C)CC2)n1", "value": ">483.6 µg/mL"}
{"smiles": "CCCSc1nsc(-c2ccccc2)c1C(=O)OC", "value": "50 µg/mL"}
{"smiles": "C[C@@H](COc1cc(N)nc(N)n1)OCP(=O)(O)O", "value": "<10 µM"}
{"smiles": "O=[N+]([O-])c1c(N2CCCC2)ncnc1N1CC[N+]2(CC1)CC[N+]1(CCN(c3ncnc(N4CCCC4)c3[N+](=O)[O-])CC1)CC2", "value": ">293.4 µg/mL"}
{"smiles": "O=C(C[C@H]1NCCC[C@@H]1O)Cn1cnc2c(c1=O)CCC2", "read by": "MTT", "value": ">100 µg/mL"}
{"smiles": "Nc1nc(NC2CC2)cc(OCCOCP(=O)(O)O)n1", "value": "<10 µM"}
{"smiles": "CSc1nsc(-c2ccccc2)c1C(N)=O", "value": "250 µg/mL"}
{"smiles": "O=c1c2ccccc2ncn1CCCC1NCCC[C@@H]1O", "read by": "MTT", "value": "4.45 µg/mL"}
{"smiles": "N#Cc1c(N2CCOCC2)nsc1-c1ccccc1", "value": "1 µg/mL"}
{"smiles": "Nc1cc(OCCOCP(=O)(O)O)nc(N)n1", "value": "<10 µM"}

The last 3 rows once more:

smiles | read by | value
O=c1c2ccccc2ncn1CCCC1NCCC[C@@H]1O | MTT | 4.45 µg/mL
N#Cc1c(N2CCOCC2)nsc1-c1ccccc1 | - | 1 µg/mL
Nc1cc(OCCOCP(=O)(O)O)nc(N)n1 | - | <10 µM

Blank or dashed fields: not listed here. Neighbouring rows are from separate reports.